Data as given in patent publication US20240317834A1, “COMPOSITIONS AND METHODS FOR NEUROLOGICAL DISEASES” (CODA BIOTHERAPEUTICS, published 2024).

Experiments:
[1] = target: T1, CODA1025 (R101F, L131G in SEQ ID NO: 33) (human (chimera of human α7-nAChR and …))
T1 chain: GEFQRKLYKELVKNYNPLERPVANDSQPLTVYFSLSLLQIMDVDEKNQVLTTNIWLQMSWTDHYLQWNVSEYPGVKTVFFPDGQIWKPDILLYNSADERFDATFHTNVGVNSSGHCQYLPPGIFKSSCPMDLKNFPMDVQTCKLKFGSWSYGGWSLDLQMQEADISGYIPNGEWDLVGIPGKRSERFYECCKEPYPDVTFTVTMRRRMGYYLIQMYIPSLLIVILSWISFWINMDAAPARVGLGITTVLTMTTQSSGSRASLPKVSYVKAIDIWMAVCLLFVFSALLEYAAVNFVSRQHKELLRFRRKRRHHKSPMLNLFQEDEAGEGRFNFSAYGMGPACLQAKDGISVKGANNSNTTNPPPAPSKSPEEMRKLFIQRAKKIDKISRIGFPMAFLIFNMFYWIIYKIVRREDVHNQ

[2] = target: T2, CODA535 (L131T, S172D in SEQ ID NO: 33) (human (chimera of human α7-nAChR and …))
T2 chain: T1 chain with F79R, G109T, S150D

[3] = target: T3, CODA534 (L131S, S172D in SEQ ID NO: 33) (human (chimera of human α7-nAChR and …))
T3 chain: T1 chain with F79R, G109S, S150D

[4] = target: T4, CODA339 (L131D in SEQ ID NO: 33) (human (chimera of human α7-nAChR and …))
T4 chain: T1 chain with F79R, G109D

[5] = target: T5, CODA806 (Y115D, L131Q in SEQ ID NO: 33) (human (chimera of human α7-nAChR and …))
T5 chain: T1 chain with F79R, Y93D, G109Q

[6] = target: T6, CODA283 (Y115E_N379K in SEQ ID NO: 33) (human (chimera of human α7-nAChR and …))
T6 chain: T1 chain with F79R, Y93E, G109L, N357K

B1: α-bungarotoxin conjugated to Alexa Fluor 647 (ligand)
chain: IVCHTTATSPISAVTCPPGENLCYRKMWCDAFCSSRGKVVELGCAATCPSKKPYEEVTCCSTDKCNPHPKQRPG
Normalized AB MFI [1]: 0.9 ratio to SEQ ID NO: 33 control
Normalized AB % [2]: 0.43 ratio to SEQ ID NO: 33 control
Normalized AB MFI [3]: 0.91 ratio to SEQ ID NO: 33 control
Normalized AB % [4]: 0.84 ratio to SEQ ID NO: 33 control
Normalized AB % [5]: 0.33 ratio to SEQ ID NO: 33 control
Normalized AB % [6]: 1.24 ratio to SEQ ID NO: 33 control

Positions count from the first letter of the chain named.
